Compound potency records, mixed from different reports. Data source: NIAID ChemDB in PubChem.

All rows: growth or infection tests; organism: HIV-1; read-out: EC90

ECn: concentration that inhibits the pathogen or its effect by n%.

compound | strain | mutations | cell line | method | result
CCC(C1=C(O)CC(CCc2ccccc2)(CCc2ccccc2)OC1=O)c1cccc(NS(=O)(=O)c2ccc(C#N)cn2)c1 | IIIB |  | H9 |  | 0.54 µM
CC(C)[C@H](NC(=O)OCc1ccccc1)C(=O)N[C@@H](Cc1ccccc1)[C@@H](O)[C@H](O)[C@H](Cc1ccccc1)NC(=O)[C@@H](NC(=O)OCc1ccccc1)C(C)C | RF |  | MT-2 | p24 / ELISA | 0.052 µM
CC(C)(C)NC(=O)[C@@H]1C[C@@H]2CCCC[C@@H]2CN1C[C@@H](O)[C@H](Cc1ccccc1)NC(=O)[C@H](CC(N)=O)NC(=O)c1ccc2ccccc2n1 | NL4-3 | PR-D30N | MT-4 | p24 | 0.01 µM
NC(=O)c1nn([C@@H]2O[C@H](CO)[C@@H](O)[C@H]2O)cc1N | IIIB |  | C8166 | syncytia | >1840 µM
Nc1nc(N)c2ncn(C[C@@H](CO)OCP(=O)(O)O)c2n1 | LAV |  | H9 | RT activity | 64 µM
COc1oc([C@H]2C/C(=C/C(C)=C/c3ccc(Oc4ccccc4)cc3)CO2)c(C)c(=O)c1C | LAI |  | PBMC + LC5-RIC | fluorescence | 0.4852 µM
Cc1nc2ccccc2n1C1[C@H]2CN(CC[C@H](NC(=O)C3CCC3)c3ccccc3)C[C@@H]12 | BAL R5 |  | PM1 |  | >1 µM
COc1cccc2cc(C(=O)N[C@@H](CC(N)=O)C(=O)N[C@@H](Cc3ccccc3)[C@H](O)C(=O)N3C[C@@H](Cl)C[C@H]3C(=O)NC(C)(C)C)oc12 | IIIB |  | MOLT-4/HIV-1(IIIB) + MOLT-4 | p24 | 0.58 µM
Cc1cn([C@H]2C[C@H](N=[N+]=[N-])[C@@H](CO)O2)c(=O)[nH]c1=O | RF |  | C8166 | cytopathic effect | 1 µg/mL
CCC[C@@]1(CCc2ccccc2)CC(O)=C([C@@H](CC)c2cccc(NS(=O)(=O)c3ccc(C(F)(F)F)cn3)c2)C(=O)O1 | IIIB |  | H9 |  | 1.8 µM
Cc1nnc(C(C)C)n1C1C[C@H]2CC[C@@H](C1)N2CC[C@H](NC(=O)C1CCC(F)(F)CC1)c1ccccc1 | SF162 |  | ACH2 + TZM-bl | luciferase | 0.0128 µM
N#Cc1ccc(-c2cc(C3CCN(C[C@H]4CN([C@@H](C(=O)O)C5CCCCC5)C[C@@H]4c4ccccc4)CC3)[nH]n2)cc1 | BaL |  | HeLa | β-galactosidase | >0.3 µM
O=C(O)/C=C/c1ccc[c]([Sb](=[O])([OH])[OH])c1 | NL4-3 |  | MAGI | β-galactosidase | 2.7 µM
CC(C)(C)NC(=O)[C@@H]1CN(Cc2cccnc2)CCN1C[C@@H](O)C[C@@H](Cc1ccccc1)C(=O)N[C@H]1c2ccccc2C[C@H]1O | IIIB |  | CEM + CEM-SS | p24 | 0.027 µM
CCCC1(CCc2ccccc2)CC(O)=C(C(c2cccc(NS(=O)(=O)c3cn(C)cn3)c2)C(C)(C)C)C(=O)O1 | IIIB |  | H9 |  | 0.3 µM
Nc1nc(NC2CC2)c2ncn([C@H]3C=C[C@@H](CO)C3)c2n1 | NL4-3 |  | Jurkat cells | luciferase | 123 µM
CCn1nc(C2CCN(C[C@H]3CN([C@@H](C(=O)O)C4CCCCC4)C[C@@H]3c3ccccc3)CC2)cc1Cc1ccccc1 | BaL |  | HeLa | β-galactosidase | >0.3 µM
Cc1ccc(C(=O)Nc2ccc(S(=O)(=O)O)c3cc(S(=O)(=O)O)cc(S(=O)(=O)O)c23)cc1NC(=O)c1cccc(NC(=O)Nc2cccc(C(=O)Nc3cc(C(=O)Nc4ccc(S(=O)(=O)O)c5cc(S(=O)(=O)O)cc(S(=O)(=O)O)c45)ccc3C)c2)c1 | LAV |  |  | RT activity | 652 µM
COc1oc([C@H]2C/C(=C/C(C)=C/c3ccccc3)CO2)c(C)c(=O)c1C | LAI |  | PBMC + LC5-RIC | fluorescence | 0.074 µM
CC(C)(C)NC(=O)[C@@H]1C[C@@H]2CCCC[C@@H]2CN1C[C@@H](O)[C@H](Cc1ccccc1)NC(=O)[C@H](CC(N)=O)NC(=O)c1ccc2ccccc2n1 | BR97 (PR L10I K20R M36I/V P63L/S L90M) | PR-L10I K20R M36I/V P63L/S L90M | PBMC | p24 | 0.033 µM
O=C1N(Cc2ccc(CO)cc2)[C@H](Cc2ccccc2)[C@H](O)[C@@H](O)[C@@H](Cc2ccccc2)N1Cc1ccc(CO)cc1 | RF |  | PBMC | p24 | 0.11 µM
Nc1nc(N)c2ncn(CCOCP(=O)(O)O)c2n1 | LAV |  | C3 | RT activity | 3 µM
Nc1ncnc2c1ncn2[C@H]1CC[C@@H](CO)O1 | IIIB |  | MT-4 | cytopathic effect / p24 / trypan blue | 150 µM
CC(C)(C)NC(=O)[C@@H]1C[C@H](Cl)CN1C(=O)[C@@H](O)[C@H](Cc1ccccc1)NC(=O)[C@H](CC(N)=O)NC(=O)c1cnc2ccccc2n1 | IIIB |  | CEM | p24 | 0.12 µM
Cc1ccnc2c1NC(=O)c1cccnc1N2C1CC1 | BRU |  | HT4 + HT4-6C | plaque count | 0.45 µM
CCCC1(CCC)CC(O)=C(C(CC)c2cccc(NS(=O)(=O)c3ccc(C(F)(F)F)cn3)c2)C(=O)O1 | IIIB |  | H9 |  | 0.76 µM
Nc1ccn([C@H]2CC[C@@H](CO)O2)c(=O)n1 | RF |  | PBMC | p24 | 0.09 µM
Cn1cc(C(=O)O)c(=O)c2cc(F)c(N3CC=C(c4ccccc4)CC3)c(C(F)(F)F)c21 | IIIB |  | MOLT-4/M0(HIV-1(IIIB)) + MOLT-4 | p24 | 1 µM
CC(C)Nc1cccnc1N1CCN(C(=O)c2cc3cc(NS(C)(=O)=O)ccc3[nH]2)CC1 | HXB2 |  | MT-4 | antigen | 0.06 µM
Cc1cccc(C)c1OCC(=O)N[C@@H](Cc1ccccc1)[C@@H](O)C[C@H](Cc1ccccc1)NC(=O)[C@H](C(C)C)N1CCCNC1=O | HXB2 | PR-M46I I47V I50V | PBMC | p24 | 0.255 µM
COc1oc([C@H]2C/C(=C/C(C)=C/c3ccc(N(C)C)cc3)CO2)c(C)c(=O)c1C | LAI |  | PBMC + LC5-RIC | fluorescence | 0.1892 µM
CCCc1c(O)cccc1C(=O)N[C@@H](Cc1ccccc1)[C@H](O)C(=O)N1C[C@@H](Cl)C[C@H]1C(=O)NC(C)(C)C | IIIB |  | CEM |  | 0.23 µM
CCCCCCCCCCCCCCC[C@@H](O)[C@@H](N)CO | HXB2 |  | TZM-bl | luciferase | >6 µM
CC(C)(C)NC(=O)[C@@H]1C[C@H](Cl)CN1C(=O)[C@@H](O)[C@H](Cc1ccccc1)NC(=O)[C@H](CC(N)=O)NC(=O)c1noc2ccccc12 | IIIB |  | MOLT-4/HIV-1(IIIB) + MOLT-4 | p24 | 3.2 µM
CC[C@H](C)[C@H](NC(=O)Cc1ccccn1)C(=O)N[C@@H](Cc1ccccc1)[C@@H](O)[C@H](O)[C@H](Cc1ccccc1)NC(=O)[C@@H](NC(=O)Cc1ccccn1)[C@@H](C)CC | RF |  | MT-2 | plaque count / virus yield | 0.9 µg/mL
C=CCN(C(=O)OCc1ccccc1)C1CCN(CCC(Cn2cnc3ccccc32)c2ccccc2)CC1 | BaL |  | MAGI + MAGI-CCR5 | β-galactosidase | >3 µM
O=C(Nc1cc(S(=O)(=O)O)cc2cc(S(=O)(=O)O)c(N=Nc3ccc(N=Nc4c(S(=O)(=O)O)cc5cc(S(=O)(=O)O)cc(NC(=O)c6cccc(Cl)c6Cl)c5c4O)cc3)c(O)c12)c1ccc(Cl)cc1Cl | RF |  | CEM |  | 0.46–0.9 µg/mL
O=C1Nc2ccc(Cl)cc2[C@@](C#CC2CC2)(C(F)(F)F)O1 | NL4-3 |  | Jurkat cells | luciferase | 0.0034 µM
CCn1nc(-c2ccc(C#N)cc2)cc1C1CCN(C[C@H]2CN([C@@H](C(=O)O)C3CCCCC3)C[C@@H]2c2ccccc2)CC1 | BaL |  | HeLa | β-galactosidase | >0.3 µM
Cc1cn([C@H]2C[C@H](N=[N+]=[N-])[C@@H](CO)O2)c(=O)[nH]c1=O | NL4-3 |  | CEM | RT activity | 0.045 µM
CC[C@H](C)[C@H](NC(=O)[C@H](C(C)C)[C@@H](O)[C@H](O)[C@H](CC1CCCCC1)NC(=O)[C@H](Cc1cnc[nH]1)NC(=O)COc1cccc2ccccc12)C(=O)NCc1ccccn1 | IIIB |  | H9 | p24 | 0.8 µM
CCn1nc(Cc2ccccc2)cc1C1CCN(C[C@H]2CN([C@](C)(C(=O)O)C(C)C)C[C@@H]2c2cccc(F)c2)CC1 | BaL |  | HeLa | β-galactosidase | >0.3 µM
CC(C)CN(C[C@@H](O)[C@H](Cc1ccccc1)NC(=O)O[C@H]1CCOC1)S(=O)(=O)c1ccc(N)cc1 | HXB2 | PR-L10R M46I L63P V82T I84V | PBMC | p24 | 0.55 µM
CCCC1(CCC)CC(O)=C([C@H](CC)c2cccc(NS(=O)(=O)c3ccc(C(F)(F)F)cn3)c2)C(=O)O1 | IIIB |  | H9 |  | 1 µM
Cc1ccc(O)c(C)c1C(=O)N[C@@H](Cc1ccccc1)[C@H](O)C(=O)N1C[C@@H](Cl)C[C@H]1C(=O)NC(C)(C)C | IIIB |  | CEM |  | 0.105 µM
CC(=O)c1ccccc1NC(C(N)=O)c1c(Cl)cccc1Cl | R88703-resistant IIIB (RT Y181C) | RT-Y181C | MT-4 | p24 | >10 µM

Repeating the first 7 entries:

compound | strain | mutations | cell line | method | result
CCC(C1=C(O)CC(CCc2ccccc2)(CCc2ccccc2)OC1=O)c1cccc(NS(=O)(=O)c2ccc(C#N)cn2)c1 | IIIB |  | H9 |  | 0.54 µM
CC(C)[C@H](NC(=O)OCc1ccccc1)C(=O)N[C@@H](Cc1ccccc1)[C@@H](O)[C@H](O)[C@H](Cc1ccccc1)NC(=O)[C@@H](NC(=O)OCc1ccccc1)C(C)C | RF |  | MT-2 | p24 / ELISA | 0.052 µM
CC(C)(C)NC(=O)[C@@H]1C[C@@H]2CCCC[C@@H]2CN1C[C@@H](O)[C@H](Cc1ccccc1)NC(=O)[C@H](CC(N)=O)NC(=O)c1ccc2ccccc2n1 | NL4-3 | PR-D30N | MT-4 | p24 | 0.01 µM
NC(=O)c1nn([C@@H]2O[C@H](CO)[C@@H](O)[C@H]2O)cc1N | IIIB |  | C8166 | syncytia | >1840 µM
Nc1nc(N)c2ncn(C[C@@H](CO)OCP(=O)(O)O)c2n1 | LAV |  | H9 | RT activity | 64 µM
COc1oc([C@H]2C/C(=C/C(C)=C/c3ccc(Oc4ccccc4)cc3)CO2)c(C)c(=O)c1C | LAI |  | PBMC + LC5-RIC | fluorescence | 0.4852 µM
Cc1nc2ccccc2n1C1[C@H]2CN(CC[C@H](NC(=O)C3CCC3)c3ccccc3)C[C@@H]12 | BAL R5 |  | PM1 |  | >1 µM

Blank or dashed fields: not listed here. Two numbers with a dash give a range or band. Rows are shuffled and stem from different studies.